Laboratory results from publication PMC6669600 (Viruses, 2019).
Where two headings read alike, the source gives them in different places.

Assays:
[1] = biological target: N36 (gp41 NHR-derived target mimic peptide) (Human immunodeficiency virus type 1 group M subtype B, UniProt P04578); test: CD spectroscopy of inhibitor complexed with N36; format: binding, HIV-1; details: thermal denaturation of complex at 222 nm, 20-98 C, 2 C/min, each peptide 10 μM in PBS; repeated two times, representative data
[2] = tested on: HIV-1HXB2 Env-mediated cell-cell fusion; format: cell-based; details: TZM-bl target, HL2/3 effector, 6 h coculture at 37 C, luciferase, triplicate, repeated three times, mean ± SD, read-out: IC50, inhibition of HIV-1HXB2 Env-mediated cell-cell fusion

CC[C@H](C)[C@H](NC(=O)[C@H](CCCCN)NC(=O)[C@H](CCCCN)NC(=O)[C@H](CC(=O)O)NC(=O)[C@H](Cc1c[nH]c2ccccc12)NC(=O)[C@H](CCC(=O)O)NC(=O)[C@H](CCC(=O)O)NC(=O)[C@H](Cc1c[nH]c2ccccc12)NC(=O)[C@@H](NC(=O)[C@H](CCSC)NC(C)=O)[C@@H](C)O)C(=O)N[C@@H](CCC(=O)O)C(=O)N[C@@H](CCC(=O)O)C(=O)N[C@@H](Cc1ccc(O)cc1)C(=O)N[C@H](C(=O)N[C@@H](CCCCN)C(=O)N[C@@H](CCCCN)C(=O)N[C@H](C(=O)N[C@@H](CCC(=O)O)C(=O)N[C@@H](CCC(=O)O)C(=O)N[C@@H](CC(C)C)C(N)=O)[C@@H](C)CC)[C@@H](C)O [MT-SC18EK]
CD data (with N36) Tm (°C) [1]: 51.6 °C | IC50 [2]: > 2000 nM

CC[C@H](C)[C@H](NC(=O)[C@H](CC(C)C)NC(=O)[C@H](CCC(=O)O)NC(=O)[C@H](CCC(=O)O)NC(=O)[C@@H](NC(=O)[C@H](CCCCN)NC(=O)[C@H](CCCCN)NC(=O)[C@@H](NC(=O)[C@H](Cc1ccc(O)cc1)NC(=O)[C@H](CCC(=O)O)NC(=O)[C@H](CCC(=O)O)NC(=O)[C@@H](NC(=O)[C@H](CCCCN)NC(=O)[C@H](CCCCN)NC(=O)[C@H](CC(=O)O)NC(=O)[C@H](Cc1c[nH]c2ccccc12)NC(=O)[C@H](CCC(=O)O)NC(=O)[C@H](CCC(=O)O)NC(=O)[C@H](Cc1c[nH]c2ccccc12)NC(=O)[C@@H](NC(=O)[C@H](CCSC)NC(C)=O)[C@@H](C)O)[C@@H](C)CC)[C@@H](C)O)[C@@H](C)CC)C(N)=O [MT-SC19EK]
CD data (with N36) Tm (°C) [1]: 67.7 °C | IC50 ([2]; SD): 4.9 ± 1.5 nM

CC[C@H](C)[C@H](NC(=O)[C@H](CC(C)C)NC(=O)[C@H](CCC(=O)O)NC(=O)[C@H](CCC(=O)O)NC(=O)[C@@H](NC(=O)[C@H](CCCCN)NC(=O)[C@H](CCCCN)NC(=O)[C@@H](NC(=O)[C@H](Cc1ccc(O)cc1)NC(=O)[C@H](CCC(=O)O)NC(=O)[C@H](CCC(=O)O)NC(=O)[C@@H](NC(=O)[C@H](CCCCN)NC(=O)[C@H](CCCCN)NC(=O)[C@H](CC(=O)O)NC(=O)[C@H](Cc1c[nH]c2ccccc12)NC(=O)[C@H](CCC(=O)O)NC(=O)[C@H](CCC(=O)O)NC(=O)[C@H](Cc1c[nH]c2ccccc12)NC(=O)[C@@H](NC(=O)[C@H](CCSC)NC(C)=O)[C@@H](C)O)[C@@H](C)CC)[C@@H](C)O)[C@@H](C)CC)C(=O)N[C@@H](CCCCN)C(N)=O [MT-SC20EK]
CD data (with N36) Tm (°C) [1]: 70.4 °C | IC50 ([2]; SD): 3.3 ± 1.4 nM

CC[C@H](C)[C@H](NC(=O)[C@H](CC(C)C)NC(=O)[C@H](CCC(=O)O)NC(=O)[C@H](CCC(=O)O)NC(=O)[C@@H](NC(=O)[C@H](CCCCN)NC(=O)[C@H](CCCCN)NC(=O)[C@@H](NC(=O)[C@H](Cc1ccc(O)cc1)NC(=O)[C@H](CCC(=O)O)NC(=O)[C@H](CCC(=O)O)NC(=O)[C@@H](NC(=O)[C@H](CCCCN)NC(=O)[C@H](CCCCN)NC(=O)[C@H](CC(=O)O)NC(=O)[C@H](Cc1c[nH]c2ccccc12)NC(=O)[C@H](CCC(=O)O)NC(=O)[C@H](CCC(=O)O)NC(=O)[C@H](Cc1c[nH]c2ccccc12)NC(=O)[C@@H](NC(=O)[C@H](CCSC)NC(C)=O)[C@@H](C)O)[C@@H](C)CC)[C@@H](C)O)[C@@H](C)CC)C(=O)N[C@@H](CCCCN)C(=O)N[C@@H](CCCCN)C(N)=O [MT-SC21EK]
CD data (with N36) Tm (°C) [1]: 69.6 °C | IC50 ([2]; SD): 3.1 ± 1.2 nM

CC[C@H](C)[C@H](NC(=O)[C@H](CC(C)C)NC(=O)[C@H](CCC(=O)O)NC(=O)[C@H](CCC(=O)O)NC(=O)[C@@H](NC(=O)[C@H](CCCCN)NC(=O)[C@H](CCCCN)NC(=O)[C@@H](NC(=O)[C@H](Cc1ccc(O)cc1)NC(=O)[C@H](CCC(=O)O)NC(=O)[C@H](CCC(=O)O)NC(=O)[C@@H](NC(=O)[C@H](CCCCN)NC(=O)[C@H](CCCCN)NC(=O)[C@H](CC(=O)O)NC(=O)[C@H](Cc1c[nH]c2ccccc12)NC(=O)[C@H](CCC(=O)O)NC(=O)[C@H](CCC(=O)O)NC(=O)[C@H](Cc1c[nH]c2ccccc12)NC(=O)[C@@H](NC(=O)[C@H](CCSC)NC(C)=O)[C@@H](C)O)[C@@H](C)CC)[C@@H](C)O)[C@@H](C)CC)C(=O)N[C@@H](CCCCN)C(=O)N[C@@H](CCCCN)C(=O)N[C@@H](CO)C(N)=O [MT-SC22EK]
CD data (with N36) Tm (°C) [1]: 71.1 °C | IC50 ([2]; SD): 2.2 ± 0.9 nM

CC[C@H](C)[C@H](NC(=O)[C@H](CC(C)C)NC(=O)[C@H](CCC(=O)O)NC(=O)[C@H](CCC(=O)O)NC(=O)[C@@H](NC(=O)[C@H](CCCCN)NC(=O)[C@H](CCCCN)NC(=O)[C@@H](NC(=O)[C@H](Cc1ccc(O)cc1)NC(=O)[C@H](CCC(=O)O)NC(=O)[C@H](CCC(=O)O)NC(=O)[C@@H](NC(=O)[C@H](CCCCN)NC(=O)[C@H](CCCCN)NC(=O)[C@H](CC(=O)O)NC(=O)[C@H](Cc1c[nH]c2ccccc12)NC(=O)[C@H](CCC(=O)O)NC(=O)[C@H](CCC(=O)O)NC(=O)[C@H](Cc1c[nH]c2ccccc12)NC(=O)[C@@H](NC(=O)[C@H](CCSC)NC(C)=O)[C@@H](C)O)[C@@H](C)CC)[C@@H](C)O)[C@@H](C)CC)C(=O)N[C@@H](CCCCN)C(=O)N[C@@H](CCCCN)C(=O)N[C@@H](CO)C(=O)N[C@@H](CCC(=O)O)C(N)=O [MT-SC23EK]
CD data (with N36) Tm (°C) [1]: 70.5 °C | IC50 ([2]; SD): 1.9 ± 0.7 nM

CC[C@H](C)[C@H](NC(=O)[C@H](CC(C)C)NC(=O)[C@H](CCC(=O)O)NC(=O)[C@H](CCC(=O)O)NC(=O)[C@@H](NC(=O)[C@H](CCCCN)NC(=O)[C@H](CCCCN)NC(=O)[C@@H](NC(=O)[C@H](Cc1ccc(O)cc1)NC(=O)[C@H](CCC(=O)O)NC(=O)[C@H](CCC(=O)O)NC(=O)[C@@H](NC(=O)[C@H](CCCCN)NC(=O)[C@H](CCCCN)NC(=O)[C@H](CC(=O)O)NC(=O)[C@H](Cc1c[nH]c2ccccc12)NC(=O)[C@H](CCC(=O)O)NC(=O)[C@H](CCC(=O)O)NC(=O)[C@H](Cc1c[nH]c2ccccc12)NC(=O)[C@@H](NC(=O)[C@H](CCSC)NC(C)=O)[C@@H](C)O)[C@@H](C)CC)[C@@H](C)O)[C@@H](C)CC)C(=O)N[C@@H](CCCCN)C(=O)N[C@@H](CCCCN)C(=O)N[C@@H](CO)C(=O)N[C@@H](CCC(=O)O)C(=O)N[C@@H](CCC(=O)O)C(N)=O [MT-SC24EK]
CD data (with N36) Tm (°C) [1]: 69.5 °C | IC50 ([2]; SD): 2.3 ± 0.5 nM

CC[C@H](C)[C@H](NC(=O)[C@H](CCCCN)NC(=O)[C@H](CCCCN)NC(=O)[C@H](CC(=O)O)NC(=O)[C@H](Cc1c[nH]c2ccccc12)NC(=O)[C@H](CCC(=O)O)NC(=O)[C@H](CCC(=O)O)NC(=O)[C@H](Cc1c[nH]c2ccccc12)NC(C)=O)C(=O)N[C@@H](CCC(=O)O)C(=O)N[C@@H](CCC(=O)O)C(=O)N[C@@H](Cc1ccc(O)cc1)C(=O)N[C@H](C(=O)N[C@@H](CCCCN)C(=O)N[C@@H](CCCCN)C(=O)N[C@H](C(=O)N[C@@H](CCC(=O)O)C(=O)N[C@@H](CCC(=O)O)C(=O)N[C@@H](CC(C)C)C(N)=O)[C@@H](C)CC)[C@@H](C)O [SC18EK]
IC50 [2]: > 2000 nM
